± gives the standard deviation of the averaged measurements. The list shows a part of the results, in another mix than the full data.
Test system: E. coli TESEC Mtb Alr
Assay: growth (OD600 after 10 h); higher = more growth (less inhibition)
Conditions: compound 0.1 mM
Method: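 TESEC Mtb Alr E. coli, or the Alr+ wild-type control, in 384-well plates with Prestwick library compounds at 0.1 mM and 1% DMSO, across arabinose induction levels of 1E3 to 1E7 nM. Growth is read as OD600 after 10 h at 37 °C in triplicate biological replicates.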

COc1cc(Br)c(C[N+]2(CCOCCC3CCC4CC3C4(C)C)CCOCC2)cc1OC (stereo not given) [Pinaverium bromide]
growth (arabinose 1000 nM, raw OD600 reference: median of DMSO wells 0.294, cell-free background 0.041): 0.0406 ± 0.00087
growth (arabinose 10000 nM, raw OD600 reference: median of DMSO wells 0.264, cell-free background 0.041): 0.0406 ± 0.0013
growth (arabinose 100000 nM, raw OD600 reference: median of DMSO wells 0.201, cell-free background 0.041): 0.0416 ± 0.0008
growth (arabinose 1000000 nM, raw OD600 reference: median of DMSO wells 0.193, cell-free background 0.041): 0.03877 ± 0.00029
growth (arabinose 10000000 nM, raw OD600 reference: median of DMSO wells 0.146, cell-free background 0.041): 0.0405 ± 0.0007

From the supplement of paper PMC9262897, “Low-cost anti-mycobacterial drug discovery using engineered E. coli” (Nature Communications, 2022)
